A mixed list of measured activities; the numbers were collected in NIAID ChemDB.

Shared fields: tests in culture; agent: Mycobacterium avium; measure: MIC

Lines come from different laboratories, so protocols vary. Blank or dashed fields: not listed here.

smiles,strain or isolate,conditions,result
CS/C(N)=N/N=C/c1ccc2ccccc2n1,CNCTC MY66/72,,125 µM
CN[C@@H]1[C@H](O[C@H]2[C@H](O[C@H]3[C@H](O)[C@@H](O)[C@H](N=C(N)N)[C@@H](O)[C@@H]3N=C(N)N)O[C@@H](C)[C@]2(O)C=O)O[C@@H](CO)[C@H](O)[C@H]1O,Strain #2,,0.39 µg/mL
CCS/C(N)=N/N=C/c1nc2ccccc2o1,CNCTC D5/93,,63 µM
CCCCCOc1cccc(NC(=O)OCCN2CCCCCC2)c1,MY330/88,,32 µM
COc1ccc(C(=O)NCc2ccccc2)c(O)c1,ATCC 25291,14 d,125 µM
CCCC(C)S/C(N)=N/N=C/c1ccc2ccccc2n1,CNCTC D5/93,,125 µM
O=C(CCC(=O)Nc1ccccc1)Nc1ccccc1,,,500 µM
Cc1cccc(C(=O)NCc2cccnc2)c1O,ATCC 25291,14 d,500 µM
O=C(Oc1ccc(Cl)cc1C(=O)Nc1ccc(Br)cc1)c1cnccn1,330/88,21 d,8 µM
O=C(NCc1ccccc1)c1ccccc1O,ATCC 25291,21 d,125 µM
Cc1ccc(CSc2ncn[nH]2)cc1,MY330/88,,250 µM
O=C(NCc1ccccn1)c1cc(F)ccc1O,ATCC 25291,14 d,500 µM
Cc1c(CN2CCSCC2)cc(-c2ccc(F)cc2)n1-c1ccc(F)cc1,103317,,16 µg/mL
Fc1ccc(-n2c(=S)oc3ccc(F)cc3c2=S)cc1,MY330/88,21 d,16 µM
O=[N+]([O-])c1ccc(CSc2ncn[nH]2)cc1,MY330/88,,500 µM
O=C(CCC(=O)Nc1ccc(F)cc1)Nc1ccc(F)cc1,,,1000 µM
Fc1cccc(Cl)c1CSc1ncn[nH]1,MY330/88,,1000 µM
O=Cc1coc2ccccc2c1=O,MY330/88,,>1000 µM
CCOc1ccc(NC(=O)OCCN(C)C)cc1,MY330/88,,>1000 µM
O=C(CCC(=O)Nc1ccc(Cl)c(Cl)c1)Nc1ccc(Cl)c(Cl)c1,,,250 µM
O=C(Oc1ccc(Br)cc1C(=O)Nc1ccc(C(F)(F)F)cc1)c1cnccn1,330/88,14 d,2 µM
O=[N+]([O-])c1cccc(F)c1CSc1ncn[nH]1,MY330/88,,>1000 µM
O=Cc1coc2ccc(Cl)cc2c1=O,MY330/88,,1000 µM
O=C(Oc1ccc(Cl)cc1C(=O)Nc1ccc(C(F)(F)F)cc1)c1cnccn1,330/88,21 d,4 µM
O=c1oc2ccc(F)cc2c(=S)n1-c1ccc(C(F)(F)F)cc1,MY330/88,14 d,32 µM
CC[C@H]1OC(=O)[C@H](C)C(=O)[C@H](C)[C@@H](O[C@@H]2O[C@H](C)C[C@H](N(C)C)[C@H]2O)[C@](C)(OC)C[C@@H](C)C(=O)[C@H](C)[C@H]2N(CCCCn3cnc(-c4cccnc4)c3)C(=O)O[C@]12C,ATCC 25291,,5 µg/mL
CCOc1ccccc1NC(=O)OCCN(C)C,MY330/88,,1000 µM
Fc1ccc(-n2c(=S)oc3ccc(Cl)cc3c2=S)cc1,MY330/88,21 d,16 µM
CCC(C)c1ccc(NC(=O)CCC(=O)Nc2ccc(C(C)CC)cc2)cc1,,,63 µM
CC(C)c1c(O)cc([C@H](N=C(N)N)C(=O)NCC(=O)O)cc1O,Strain 1,,1.56 µg/mL
O=C(Oc1ccc(Cl)cc1C(=O)Nc1ccc(Cl)cc1)c1cnccn1,330/88,14 d,4 µM
CCS/C(N)=N/N=C/c1ccc2cc(Cl)ccc2n1,CNCTC D5/93,,63 µM
Clc1ccc(CSc2ncn[nH]2)cc1,MY330/88,,500 µM
CCCCCCCCOc1cccc(NC(=O)OCCN2CCCCC2)c1,MY330/88,,32 µM
O=Cc1coc2ccc(Br)cc2c1=O,MY330/88,,>1000 µM
Cc1c(CN2CCSCC2)cc(-c2ccc(F)cc2)n1-c1ccc(Cl)cc1,103317,,>16 µg/mL
S=c1oc2ccc(Br)cc2c(=S)n1-c1ccc(Br)cc1,MY330/88,14 d,32 µM
O=C(Oc1cc(Cl)ccc1C(=O)Nc1cccc(F)c1)c1cnccn1,330/88,21 d,16 µM
S=c1oc2ccc(Br)cc2c(=S)n1-c1ccccc1,MY330/88,14 d,8 µM
CC(C)N=C(N)/N=C(\N)NOCCCOc1ccc(Cl)c(Cl)c1,3404-4,,0.4 µg/mL
CCCOc1ccccc1NC(=O)OCCN1CCCCCC1,MY330/88,,250 µM
O=[N+]([O-])c1ccc(CSc2ncn[nH]2)c([N+](=O)[O-])c1,MY330/88,,500 µM
CCS/C(N)=N/N=C/c1ccc2ccccc2n1,CNCTC MY80/72,,>1000 µM
CC(C)N=c1cc2n(-c3ccc(Cl)cc3)c3ccccc3nc-2cc1Nc1ccc(Cl)cc1,8775,,5 µg/mL
CCS/C(N)=N/N=C/c1nc2ccccc2n1C,CNCTC MY66/72,,32 µM
O=C(NCc1ccccc1)c1cc(Br)cc(Br)c1O,ATCC 25291,14 d,125 µM

The first 6 rows once more:

smiles	strain or isolate	conditions	result
CS/C(N)=N/N=C/c1ccc2ccccc2n1	CNCTC MY66/72		125 µM
CN[C@@H]1[C@H](O[C@H]2[C@H](O[C@H]3[C@H](O)[C@@H](O)[C@H](N=C(N)N)[C@@H](O)[C@@H]3N=C(N)N)O[C@@H](C)[C@]2(O)C=O)O[C@@H](CO)[C@H](O)[C@H]1O	Strain #2		0.39 µg/mL
CCS/C(N)=N/N=C/c1nc2ccccc2o1	CNCTC D5/93		63 µM
CCCCCOc1cccc(NC(=O)OCCN2CCCCCC2)c1	MY330/88		32 µM
COc1ccc(C(=O)NCc2ccccc2)c(O)c1	ATCC 25291	14 d	125 µM
CCCC(C)S/C(N)=N/N=C/c1ccc2ccccc2n1	CNCTC D5/93		125 µM